{
  "source": "patent US20150030667A1",
  "about": "“COMPOSITIONS AND METHODS FOR TREATING U[…]” (priority 2013, published 2015)",
  "system": "bladder (detrusor) contractility of BoNT treated rats",
  "settings": "rat, in vivo",
  "data": [
    {"smiles": "CN(C)C(=O)Oc1cccc([N+](C)(C)C)c1", "note": "[neostigmine]", "values": [
      {"measurement": "detrusor contractility during the filling phase", "value": "do not show increased"}
    ]}
  ]
}
